Reference: patent US20250155433A1, “FLUORESCENT SENSORS FOR DETECTION OF SIDEROPHORES AND OTHER MOLECULES PRODUCED BY BACTERIAL PATHOGENS” (Kansas State University Research Foundation, priority 2021, published 2025)

What was measured:
Type in all cases: cell-based
[1] = system: K. pneumoniae HvKp2; assay: Siderophore concentrations in spent media, HvKp2; conditions: for Concentration in spent bacterial media, HvKp2: ferrated supernatant
[2] = system: K. pneumoniae HvKp1; assay: Siderophore concentrations in spent media, HvKp1; conditions: ferrated supernatant
[3] = system: E. coli CP9; assay: Siderophore concentrations in spent media, CP9; conditions: ferrated supernatant
[4] = system: E. coli Nissle 1917; assay: Siderophore concentrations in spent media, Nissle 1917; conditions: MOPS, 24 h, ferrated supernatant
[5] = system: E. coli MG1655; assay: Siderophore concentrations in spent media, MG1655; conditions: MOPS, 24 h, ferrated supernatant

| Structure (SMILES) | Production by HvKpn2 ([1]; in MOPS) [mM] | Concentration in spent bacterial media, HvKp1 ([2]; M9, 24 h) [µM] | Concentration in spent bacterial media, HvKp1 ([2]; MOPS, 24 h) [µM] | Concentration in spent bacterial media, CP9 ([3]; M9, 24 h) [µM] | Concentration in spent bacterial media, CP9 ([3]; MOPS, 24 h) [µM] | Concentration in spent bacterial media, HvKp2 ([1]; M9, 24 h) [µM] | Concentration in spent bacterial media, HvKp2 ([1]; MOPS, 24 h) [µM] | Concentration in spent bacterial media, Nissle [4] [µM] | Concentration in spent bacterial media, MG1655 [5] [µM] |
| --- | --- | --- | --- | --- | --- | --- | --- | --- | --- |
| CC(=O)N(O)CCCC[C@H](NC(=O)CC(O)(CC(=O)N[C@@H](CCCCN(O)C(C)=O)C(=O)O)C(=O)O)C(=O)O [Abn, aerobactin] | 0.6 |  |  |  |  |  |  |  |  |
| CC(=O)N([O-])CCCC[C@H](NC(=O)CC(O)(CC(=O)N[C@@H](CCCCN([O-])C(C)=O)C(=O)O)C(=O)[O-])C(=O)O.[Fe+3] [FeAbn, ferric aerobactin] |  | 210 ± 11 | 444 ± 91 | 0 | 0 | 186 ± 17 | 626 ± 90 |  |  |
| O=C(N[C@H]1COC(=O)[C@@H](NC(=O)c2cccc([O-])c2[O-])COC(=O)[C@@H](NC(=O)c2cccc([O-])c2[O-])COC1=O)c1cccc([O-])c1[O-].[Fe+3] [FeEnt, ferric enterobactin] |  | 0.43 ± 0.03 | 2.1 ± 0.07 | 0.2 ± 0.07 | 8.4 ± 0.7 | 0.267 ± 0.02 | 1.4 ± 0.07 |  |  |
| O=C(N[C@H]1COC(=O)[C@@H](NC(=O)c2cc([C@@H]3O[C@H](CO)[C@@H](O)[C@H](O)[C@H]3O)cc(O)c2[O-])COC(=O)[C@@H](NC(=O)c2cc([C@@H]3O[C@H](CO)[C@@H](O)[C@H](O)[C@H]3O)cc(O)c2[O-])COC1=O)c1cccc(O)c1[O-].[Fe+3] [FeGEnt] |  | 2.8 | 6.9 ± 0.07 | 5.1 | 84 ± 0.7 | 0.9 | 14.9 ± 0.07 | 71.3 ± 0.2 | 11.1 ± 1.5 |
